This passage reports SI results from publication PMC9837764 (Nature Communications, 2023).

In the data set the test system is SARS-CoV-2. Briefly: Yield-reduction assay, SARS-CoV-2 in Calu-3 cells (titers as PFU/mL in Vero cells). Particulars: Selectivity index = CC50/EC50.

On to `OC[C@H]1O[C@@H](n2cnc3c(NCc4ccco4)ncnc32)[C@H](O)[C@@H]1O` [MB-801, Kinetin riboside], for which, under “Two treatments”, the SI was 26,500.

Turning to `CC(C)C(=O)OC[C@H]1O[C@@H](n2ccc(NO)nc2=O)[C@H](O)[C@@H]1O` [MK-4482, molnupiravir, reference compound], the SI is recorded as 80 (One treatment) and 2,900 (Two treatments).
